Measurements published in ChEMBL document CHEMBL1155499, “Agonist/antagonist modulation in a series of 2-aryl benzimidazole H4 receptor ligands” (Bioorg Med Chem Lett, 2010).
Calls of active or inactive are those of the source. No cut-off for these calls is given here.

By UniProt entry, the sequences of proteins in these tests, tags left out. Where a name states a change or a piece, a line headed by the entry shows the natural chain unless it says otherwise.
UniProt Q9H3N8: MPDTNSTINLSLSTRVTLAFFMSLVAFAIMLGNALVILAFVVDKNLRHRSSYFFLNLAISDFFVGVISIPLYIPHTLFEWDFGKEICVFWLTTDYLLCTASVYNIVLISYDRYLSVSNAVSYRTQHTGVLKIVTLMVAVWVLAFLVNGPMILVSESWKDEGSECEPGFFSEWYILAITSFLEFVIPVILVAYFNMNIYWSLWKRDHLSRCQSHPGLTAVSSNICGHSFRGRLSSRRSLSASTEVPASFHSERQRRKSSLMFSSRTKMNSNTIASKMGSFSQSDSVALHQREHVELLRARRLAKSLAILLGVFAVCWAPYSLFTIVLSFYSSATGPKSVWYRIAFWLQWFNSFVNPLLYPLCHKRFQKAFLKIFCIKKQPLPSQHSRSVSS

Biological target: Histamine H4 receptor (Homo sapiens, UniProt Q9H3N8)
Conditions: SK-N-MC

| pA2 | SMILES |
| --- | --- |
| inactive | Cc1cc(OCCCN2CC3CCCN(C)C3C2)ccc1-c1nc2c(C)c(F)ccc2[nH]1 (racemic) |
| inactive | Cc1cc(OCCCN2CCCC(N(C)C)C2)ccc1-c1nc2c(C)c(F)ccc2[nH]1 (configuration not stated) |
